System: M. mazei Adriase
Assay: Pulldown of M. mazei whole cell extract with bead-coupled tagged M. mazei Adriase, LC-MS/MS of eluate
Settings: for Intensity (Experiment 2.3): bait Adriase coupled via C-terminal HA-tag; for Intensity (Experiment 2.2): bait Adriase coupled via C-terminal Myc-tag; for Intensity (Experiment 2.1): bait Adriase coupled via C-terminal Strep-tag

| Substance | Intensity (Experiment 2.3) [arbitrary units] | Intensity (Experiment 2.2) [arbitrary units] | Intensity (Experiment 2.1) [arbitrary units] |
| --- | --- | --- | --- |
| MtrE: subunit of the M. mazei MtrA-MtrH complex detected in pulldown | 3.8E+06 | 2.2E+06 | 2.1E+06 |
| MtrG: subunit of the M. mazei MtrA-MtrH complex detected in pulldown | 1.5E+07 | 1.2E+06 | 8.6E+05 |
| MtrH: subunit of the M. mazei MtrA-MtrH complex detected in pulldown | 2.0E+08 | 6.5E+07 | 6.0E+07 |

From patent US20260275319A1, “ARCHAEAL PEPTIDE RECOMBINASE – A NOVEL PEPTIDE LIGATING ENZYME” (MAX-PLANCK-GESELLSCHAFT ZUR FÖRDERUNG DER WISSENSCHAFTEN …, priority 2019, published 2026)
